Measurements taken from PMC5940772 (Nature Communications, 2018).

B1: NS1-ED (R140A) (domain or fragment)
chain: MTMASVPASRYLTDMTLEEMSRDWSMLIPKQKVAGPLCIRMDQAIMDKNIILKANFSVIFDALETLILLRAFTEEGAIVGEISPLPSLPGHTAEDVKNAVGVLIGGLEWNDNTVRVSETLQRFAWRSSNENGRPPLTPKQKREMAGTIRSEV
B2: His-tagged TRIM25-CC (coiled-coil domain of TRIM25, 189-379) (domain or fragment)
chain: ASLSQASADLEATLRHKLTVMYSQINGASRALDDVRNRQQDVRMTANRKVEQLQQEYTEMKALLDASETTSTRKIKEEEKRVNSKFDTIYQILLKKKSEIQTLKEEIEQSLTKRDEFEFLEKASKLRGISTKPVYIPEVELNHKLIKGIHQSTIDLKNELKQCIGRLQEPTPSSGDPGEHDPASTHKSTRP

Key:
[1] = target: His-tagged TRIM25-CC (coiled-coil domain of TRIM25, 189-379) (UniProt Q14258); test: BLI
[2] = target: B2
[3] = target: NS1-FL (W187A), strain A/Puerto Rico/8/1934 H1N1 (influenza A virus, strain A/Puerto …, UniProt P03496 1-230, W187A)
[4] = target: NS1-FL (R38A/K41A/W187A), strain A/Puerto Rico/8/1934 H1N1 (influenza A virus, strain A/Puerto …, UniProt P03496 1-230, R38A | K41A | W187A)

## NS1-FL wild type (A/Puerto Rico/8/1934 H1N1) R38A; K41A
[1]
  Kd: 25.2 µM

## B1
[2]
  Kd: 24.1 µM

## B2
[3]
  Kd: 12.5 µM
[4]
  Kd: 8.2 µM
